The values below come from article PMC8141534 (The Journal of Biological Chemistry, 2021).

The test system of the assay is Mycobacterium bovis BCG. The assay is described as follows: in vivo growth inhibition assay in M. bovis BCG. It counts as cell-based. The following applies: pSTKT, Ptet, without inducer ATc; 3 weeks; versus empty vector.

For the molecule `CC[C@H](C)[C@H](NC(=O)[C@H](Cc1ccccc1)NC(=O)[C@H](CCC(N)=O)NC(=O)[C@H](C)NC(=O)[C@@H]1CCCN1C(=O)[C@@H](NC(=O)[C@H](Cc1c[nH]cn1)NC(=O)[C@H](Cc1c[nH]cn1)NC(=O)[C@H](Cc1c[nH]cn1)NC(=O)[C@H](Cc1c[nH]cn1)NC(=O)[C@H](Cc1c[nH]cn1)NC(=O)[C@H](Cc1c[nH]cn1)NC(=O)[C@@H](N)CCSC)[C@@H](C)O)C(=O)N[C@@H](Cc1ccccc1)C(=O)N[C@@H](Cc1ccccc1)C(=O)N[C@@H](CCCNC(=N)N)C(=O)N[C@H](C(=O)N[C@@H](CCCCN)C(=O)N[C@H](C(=O)N[C@@H](CCCNC(=N)N)C(=O)N[C@@H](CC(N)=O)C(=O)N[C@@H](Cc1c[nH]c2ccccc12)C(=O)N[C@@H](Cc1c[nH]cn1)C(=O)N[C@H](C(=O)N[C@@H](CO)C(=O)N[C@H](C(=O)N[C@@H](CO)C(=O)N[C@H](C(=O)N[C@@H](CCCCN)C(=O)N[C@@H](C)C(=O)N[C@@H](Cc1c[nH]c2ccccc12)C(=O)N[C@@H](CC(C)C)C(=O)N[C@@H](Cc1ccccc1)C(=O)N[C@@H](Cc1c[nH]c2ccccc12)C(=O)N[C@@H](CCCNC(=N)N)C(=O)N[C@@H](CCSC)C(=O)N[C@@H](CCCNC(=N)N)C(=O)N[C@@H](CCC(=O)O)C(=O)N[C@@H](CC(=O)O)C(=O)N[C@@H](Cc1ccccc1)C(=O)N[C@@H](CCC(N)=O)C(=O)N1CCC[C@H]1C(=O)N[C@@H](CC(=O)O)C(=O)N[C@H](C(=O)N[C@@H](CC(=O)O)C(=O)O)[C@@H](C)O)C(C)C)C(C)C)[C@@H](C)O)C(C)C)C(C)C` [peptide 33], the “transformants obtained (in words)” value is listed as “fewer colonies than those obtained from the transformation with the empty vector”.
